Assay results published in article PMC7790381, “Directed evolution reveals the mechanism of HitRS signaling transduction in Bacillus anthracis” (2020).

How the values were obtained:
[1] = biological target: HitR WT (B. anthracis); experiment: SEC
[2] = biological target: HitR WT (B. anthracis); experiment: MST
[3] = tested on: HitR E203A (Bacillus anthracis); experiment: EMSA
[4] = tested on: HitR K168A (Bacillus anthracis); experiment: EMSA
[5] = tested on: HitR M58I (Bacillus anthracis); experiment: EMSA
[6] = tested on: HitR WT (Bacillus anthracis); experiment: EMSA

HitR WT (natural protein)
percent dimer [1]: 45%
percent monomer [1]: 55%
stoichiometry N [1]: 2

HitS WT, intracellular region (residue 68 to 352), autophosphorylated (domain or fragment)
Kd [2]: 270 nM

HitS WT, intracellular region (residue 68 to 352) (domain or fragment)
Kd [2]: 385 nM

hitPRS promoter 202 bp
binding signal (fold higher affinity than WT) [3]: 10
binding signal (fold higher affinity than WT) [4]: 10
binding signal (fold higher affinity than WT) [5]: 5
Kd [6]: 55 nM
